Test results published in patent US20210329924A1, “METAL-BASED ANTIMICROBIAL COMPOSITION AND METHOD OF USING” (Microbonds Inc., priority 2020, published 2021).

Assays:
[1] = Stain test (colour change of treated substrate, Delta E criteria); settings: 1 hr
[2] = Wash test (metal remains adhered to substrate after multiple washes); settings: 1 hr
[3] = 10 ppm zinc metal loading, white cotton duvet, 60 C.-100 C.
[4] = 20 ppm zinc metal loading, white cotton duvet, 60 C.-100 C.
[5] = 100 ppm zinc metal loading, white cotton duvet, 60 C.-100 C.
[6] = 500 ppm zinc metal loading, white cotton duvet, 60 C.-100 C.
[7] = 1000 ppm zinc metal loading, white cotton duvet, 60 C.-100 C.
[8] = 3000 ppm zinc metal loading, white cotton duvet, 60 C.-100 C.
[9] = 10 ppm silver metal loading, dark Coolmax polyester fabric, 20 C.
[10] = 20 ppm silver metal loading, dark Coolmax polyester fabric, 20 C.
[11] = 100 ppm silver metal loading, dark Coolmax polyester fabric, 20 C.
[12] = 500 ppm silver metal loading, dark Coolmax polyester fabric, 20 C.
[13] = 1000 ppm silver metal loading, dark Coolmax polyester fabric, 20 C.
[14] = 3000 ppm silver metal loading, dark Coolmax polyester fabric, 20 C.
[15] = 10 ppm silver metal loading, white cotton fabric, 20 C.
[16] = 20 ppm silver metal loading, white cotton fabric, 20 C.
[17] = 100 ppm silver metal loading, white cotton fabric, 20 C.
[18] = 500 ppm silver metal loading, white cotton fabric, 20 C.
[19] = 1000 ppm silver metal loading, white cotton fabric, 20 C.
[20] = 3000 ppm silver metal loading, white cotton fabric, 20 C.

## [Cu(NH3)4(H2O)n]SO4 [Example 8]
[1]; [3]
  Stain test Pass: Yes
[1]; [4]
  Stain test Pass: Yes
[1]; [5]
  Stain test Pass: Yes
[1]; [6]
  Stain test Pass: Yes
[1]; [7]
  Stain test Pass: Yes
[1]; [8]
  Stain test Pass: Yes
[2]; [3]
  Wash test Pass: Yes
[2]; [4]
  Wash test Pass: Yes
[2]; [5]
  Wash test Pass: Yes
[2]; [6]
  Wash test Pass: Yes
[2]; [7]
  Wash test Pass: Yes
[2]; [8]
  Wash test Pass: No

## [Ag(NH3)2]-formate [Example 5]
[1]; [9]
  Stain test Pass: Yes
[1]; [10]
  Stain test Pass: Yes
[1]; [11]
  Stain test Pass: Yes
[1]; [12]
  Stain test Pass: Yes
[1]; [13]
  Stain test Pass: Yes
[1]; [14]
  Stain test Pass: Yes
[2]; [9]
  Wash test Pass: Yes
[2]; [10]
  Wash test Pass: Yes
[2]; [11]
  Wash test Pass: Yes
[2]; [12]
  Wash test Pass: Yes
[2]; [13]
  Wash test Pass: Yes
[2]; [14]
  Wash test Pass: Yes

## [Ag(NH3)2]-oxalate [Example 3]
[1]; [15]
  Stain test Pass: Yes
[1]; [16]
  Stain test Pass: Yes
[1]; [17]
  Stain test Pass: Yes
[1]; [18]
  Stain test Pass: Yes
[1]; [19]
  Stain test Pass: No
[1]; [20]
  Stain test Pass: No
[2]; [15]
  Wash test Pass: Yes
[2]; [16]
  Wash test Pass: Yes
[2]; [17]
  Wash test Pass: Yes
[2]; [18]
  Wash test Pass: Yes
[2]; [19]
  Wash test Pass: Yes
[2]; [20]
  Wash test Pass: Yes
